Compound potency records, mixed from different reports. Data source: NIAID ChemDB in PubChem.

Shared fields: growth or infection tests

MIC50, MIC90 and the like: level of inhibition, or share of isolates inhibited.

{"smiles": "C[C@H](Cn1cnc2c(N)ncnc21)OCP1(=O)OCC(CC(=O)OC2CCCC2)CO1", "agent": "Hepatitis B virus", "strain": "Genotype D", "cell line": "PHH", "method": "PCR", "endpoint": "inhibition", "tested at": "1 µM", "value": "≤30%"}
{"smiles": "COCC(=O)OC1CCn2c1nc1c2C(=O)C(C)=C(NC(C)=O)C1=O", "agent": "Kaposi sarcoma virus", "cell line": "BC3", "method": "GFP / microscopy", "endpoint": "EC50", "value": "0.5 µM"}
{"smiles": "CCCc1ncc(C[n+]2ccccc2C)c(N)n1", "agent": "Cryptosporidium parvum", "strain": "Calf isolate", "cell line": "L929", "endpoint": "inhibition", "tested at": "0.032 µg/mL", "value": "21.57%"}
{"smiles": "C/C=C1/CC2CCC3=C(Cc4ccccc43)C2C[C@@H]1C1=CN2c3ccccc3C34CCN5C/C(=C/O)[C@H](C[C@H]53)[C@@H]([C@@H]1O)[C@H]24", "agent": "Plasmodium falciparum", "strain": "W2", "endpoint": "EC90", "value": "3.161 µg/mL"}
{"smiles": "C[C@@H](c1nc(-c2ccc(C#N)cc2)cs1)[C@](O)(Cn1cnnc1)c1ccc(F)cc1F", "agent": "Candida albicans", "strain": "Isogenic isolate 16 CDR", "endpoint": "MIC", "value": "0.25 µg/mL"}
{"smiles": "CC(=O)N[C@@H](CS)C(=O)O", "agent": "Rhinovirus", "cell line": "HeLa", "method": "cytopathic effect", "endpoint": "EC50", "value": ">50 µM"}
{"smiles": "CC(C)OC(=O)CCC1COP(=O)(CO[C@H](C)Cn2cnc3c(NC(=O)c4ccccc4)ncnc32)OC1", "agent": "Hepatitis B virus", "strain": "Genotype D", "cell line": "HepaRG", "method": "PCR", "endpoint": "inhibition", "tested at": "1 µM", "value": "50–80%"}
{"smiles": "C[C@@H]1CCC[C@@H]2C[C@@H](NC(=O)c3cc(N=[N+]=[N-])ccc3O)CCN21", "agent": "Influenza A virus", "strain": "H1N1 A/WSN/33", "cell line": "MDBK", "method": "plaque count", "endpoint": "EC50", "value": "0.5 µg/mL"}
{"smiles": "CC(O)C(CP(=O)(O)O)OCn1ccc(N)nc1=O", "agent": "Sandfly fever virus", "strain": "Sicilian strain Vero cells", "method": "cytopathic effect", "endpoint": "EC50", "value": ">320 µg/mL"}
{"smiles": "C#CC[C@@H](C(=O)N[C@H](/C=C/C(=O)OCC)C[C@@H]1CCNC1=O)n1cccc(NC(=O)c2cc(C)on2)c1=O", "agent": "Rhinovirus", "strain": "Clinical isolate 0 (serotype 39)", "cell line": "H1-HELA", "method": "cytopathic effect / XTT", "endpoint": "EC50", "value": "0.074 µM"}
{"smiles": "NC(=O)c1csc([C@@H]2O[C@H](CO)[C@@H](O)[C@H]2O)n1", "agent": "Pichinde virus", "strain": "COAN3739", "cell line": "VERO", "method": "cytopathic effect", "endpoint": "EC50", "value": "494.5 µg/mL"}
{"smiles": "c1ccc(-c2cccc(-c3ccccn3)n2)nc1", "agent": "Kaposi sarcoma virus", "cell line": "BC3", "method": "GFP / microscopy", "endpoint": "EC50", "value": "<0.05 µM"}
{"smiles": "COC(=O)[C@H](C)NP(=O)(OC[C@H]1C/C1=C/n1cnc2c(=O)[nH]c(N)nc21)Oc1ccccc1", "agent": "Mouse cytomegalovirus", "cell line": "MEF", "method": "plaque count", "endpoint": "EC50", "value": "3.3 µM"}
{"smiles": "C=Cc1ccc(O)c(C(=O)N[C@H]2CCN3[C@H](CCC[C@H]3C)C2)c1", "agent": "Influenza A virus", "strain": "H1N1 A/WSN/33", "cell line": "MDBK", "method": "plaque count", "endpoint": "EC50", "value": "2 µg/mL"}
{"smiles": "C=C1CN2CCC34c5ccccc5N5C=C([C@H]6CC7C8=C(CCN7C/C6=C/C)C6C=CC=CC6N8)[C@@H](O)[C@@H]([C@H]53)[C@H]1C[C@]24O", "agent": "Plasmodium falciparum", "strain": "W2", "endpoint": "EC90", "value": "54.23 µg/mL"}
{"smiles": "CCOP(=O)(O)CC(OCn1cc(C)c(=O)[nH]c1=O)C(C)O", "agent": "Sandfly fever virus", "strain": "Sicilian strain Vero cells", "method": "cytopathic effect", "endpoint": "EC50", "value": ">320 µg/mL"}
{"smiles": "CC(=O)OC[C@H]1O[C@@H](NC(=O)N(CCCl)N=O)[C@H](OC(C)=O)[C@@H](OC(C)=O)[C@@H]1OC(C)=O", "agent": "Kaposi sarcoma virus", "cell line": "BC3", "method": "GFP / microscopy", "endpoint": "EC50", "value": ">100 µM"}
{"smiles": "Cc1ccc(N2NOC(=O)C2S(=O)(=O)Nc2nc3ccc(Cl)cc3s2)cc1", "agent": "Aspergillus clavatus", "strain": "MTCC323", "method": "broth dilution", "endpoint": "MIC", "value": "500 µg/mL"}
{"smiles": "[Cl][Cd][Cl]", "agent": "Kaposi sarcoma virus", "cell line": "BC3", "method": "GFP / microscopy", "endpoint": "EC50", "value": "0.5 µM"}
{"smiles": "C[C@@H]1CCC[C@@H]2C[C@@H](NC(=O)c3cc4c(cc3O)C(C)(C)CCC4(C)C)CCN21", "agent": "Influenza A virus", "strain": "H1N1 A/WSN/33", "cell line": "MDBK", "method": "plaque count", "endpoint": "EC50", "value": ">20 µg/mL"}
{"smiles": "CC(C)N=C(N)/N=C(\\N)Nc1ccc(Cl)cc1", "agent": "Cryptosporidium parvum", "strain": "Calf isolate", "cell line": "L929", "endpoint": "inhibition", "tested at": "20 µg/mL", "value": "55%"}
{"smiles": "Nc1ncnc2c1ncn2[C@@H]1C=C(CO)[C@@H](O)[C@H]1O", "agent": "Tacaribe virus", "cell line": "VERO", "method": "cytopathic effect", "endpoint": "EC50", "value": "5.5 µg/mL"}
{"smiles": "NC1CCN(c2c(F)cc3c(=O)c(C(=O)O)cn(C4CC4)c3c2Cl)C1", "agent": "Enterococcus faecium", "strain": "10 strains", "endpoint": "MIC90", "value": "0.5 µg/mL"}
{"smiles": "CCCCCCOC(=O)CC1COP(=O)(CO[C@H](C)Cn2cnc3c(N)ncnc32)OC1", "agent": "Hepatitis B virus", "strain": "Genotype D", "cell line": "HepaRG", "method": "PCR", "endpoint": "inhibition", "tested at": "1 µM", "value": "30–50%"}
{"smiles": "C[C@@H]1[C@H](O)[C@@H](C)/C=C/C=C/CC/C=C/C=C/C=C/C=C/C(O[C@H]2O[C@H](C)[C@@H](O)[C@H](N)[C@@H]2O)CC2O[C@](O)(CC(O)C(O)CCC(O)CC(O)CC(O)CC(=O)O[C@H]1C)CC(O)C2C(=O)O", "agent": "Aspergillus clavatus", "strain": "MTCC323", "method": "agar diffusion", "endpoint": "zone", "tested at": "250 µg/mL", "value": "26 mm"}
{"smiles": "CO[C@H]1C[C@H](O[C@@H]2CC[C@@]3(O)CC[C@@H]4[C@H](CC[C@]5(C)C(C6=CC(=O)OC6)CC[C@]45O)[C@@]3(C=O)C2)O[C@H](C)[C@H]1O[C@@H]1O[C@H](CO[C@@H]2O[C@H](CO)[C@@H](O)[C@H](O)[C@H]2O)[C@@H](O)[C@H](O)[C@H]1O", "agent": "Kaposi sarcoma virus", "cell line": "BC3", "method": "GFP / microscopy", "endpoint": "EC50", "value": "10 µM"}
{"smiles": "CCOC(=O)CC1COP(=O)(CO[C@H](C)Cn2cnc3c(N)ncnc32)OC1", "agent": "Hepatitis B virus", "strain": "Genotype D", "cell line": "HepaRG", "method": "PCR", "endpoint": "inhibition", "tested at": "1 µM", "value": "≤30%"}
{"smiles": "CC1(C)N=C(N)N=C(N)N1c1ccc(Cl)cc1", "agent": "Cryptosporidium parvum", "strain": "Calf isolate", "cell line": "L929", "endpoint": "inhibition", "tested at": "0.8 µg/mL", "value": "27.97%"}
{"smiles": "CC1COP(=O)(CO[C@H](C)Cn2cnc3c(N)ncnc32)OC1", "agent": "Hepatitis B virus", "strain": "Genotype D", "cell line": "HepaRG", "method": "PCR", "endpoint": "inhibition", "tested at": "1 µM", "value": ">80%"}
{"smiles": "S=C(S)N1CCCC1", "agent": "Rhinovirus", "strain": "TYPE 8", "cell line": "HeLa", "endpoint": "inhibition", "tested at": "31 µM", "value": "10%"}
{"smiles": "NC12CC3CC(CC(C3)C1)C2", "agent": "Influenza B virus", "strain": "B/University of Maryland/1/71", "endpoint": "MIC", "value": ">25 µg/mL"}
{"smiles": "Cc1ccc(N2NOC(=O)C2S(=O)(=O)Nc2nc(-c3c(Cl)cccc3Cl)cs2)cc1", "agent": "Aspergillus clavatus", "strain": "MTCC323", "method": "agar diffusion", "endpoint": "zone", "tested at": "250 µg/mL", "value": "20 mm"}
{"smiles": "CCN(CC)CCCC(C)Nc1ccnc2cc(Cl)ccc12", "agent": "Cryptosporidium parvum", "strain": "Calf isolate", "cell line": "L929", "endpoint": "inhibition", "tested at": "20 µg/mL", "value": "41.4%"}
{"smiles": "CC[C@]1(O)C[C@H]2CN(CCc3c([nH]c4ccccc34)[C@@](C(=O)OC)(c3cc4c(cc3OC)N(C=O)[C@H]3[C@@](O)(C(=O)OC)[C@H](OC(C)=O)[C@]5(CC)CCCN6CC[C@]43[C@@H]65)C2)C1", "agent": "Kaposi sarcoma virus", "cell line": "BC3", "method": "GFP / microscopy", "endpoint": "EC50", "value": "<0.05 µM"}
{"smiles": "CN(C)[C@@H]1C(=O)C(C(N)=O)=C(O)[C@@]2(O)C(=O)C3=C(O)c4c(O)c(NC(=O)CNC(F)(F)F)cc(F)c4C[C@H]3C[C@@H]12", "agent": "Staphylococcus aureus", "strain": "161-MRS", "method": "agar diffusion", "endpoint": "EC50", "value": "2 µg/mL"}
{"smiles": "COC(=O)[C@]12OC[C@]34[C@H]([C@@H](O)[C@H]1O)[C@@]1(C)CC(=O)C(O)=C(C)[C@@H]1C[C@H]3OC(=O)[C@H](OC(=O)/C=C(\\C)C(C)C)[C@@H]24", "agent": "Kaposi sarcoma virus", "cell line": "BC3", "method": "GFP / microscopy", "endpoint": "EC50", "value": "<0.05 µM"}
{"smiles": "Cc1ccc(N2NOC(=O)C2S(=O)(=O)Nc2ccc(-n3c(-c4ccc(Cl)cc4)nc4ccccc4c3=O)cc2)cc1", "agent": "Aspergillus clavatus", "strain": "MTCC323", "method": "broth dilution", "endpoint": "MIC", "value": "200 µg/mL"}
{"smiles": "Cc1ccc(C(=O)N[C@H]2CCN3[C@H](CCC[C@H]3C)C2)c(O)c1", "agent": "Influenza A virus", "strain": "H1N1 A/WSN/33", "cell line": "MDBK", "method": "plaque count", "endpoint": "EC50", "value": "4 µg/mL"}
{"smiles": "CN(C)[C@@H]1C(=O)C(C(N)=O)=C(O)[C@@]2(O)C(=O)C3=C(O)c4c(O)cccc4[C@@](C)(O)[C@H]3[C@H](O)[C@@H]12", "agent": "Cryptosporidium parvum", "strain": "Calf isolate", "cell line": "L929", "endpoint": "inhibition", "tested at": "0.8 µg/mL", "value": "20.19%"}
{"smiles": "C=C1CN2CCC34c5ccccc5N5C=C([C@H]6CC7C8=C(CCC7C/C6=C/C)c6ccccc6C8)[C@@H](O)[C@@H]([C@H]53)[C@H]1C[C@H]24", "agent": "Plasmodium falciparum", "strain": "3D7", "endpoint": "EC90", "value": "2.528 µg/mL"}
{"smiles": "CCCCc1cc2c(=O)c(C(=O)OC)c[nH]c2cc1OCc1ccccc1", "agent": "Cryptosporidium parvum", "strain": "Calf isolate", "cell line": "L929", "endpoint": "inhibition", "tested at": "20 µg/mL", "value": "37%"}
{"smiles": "CC(C)CCCC(=O)CCCCCCC(=O)CCN(O)C(=O)C(N)CO", "agent": "Kaposi sarcoma virus", "cell line": "BC3", "method": "GFP / microscopy", "endpoint": "EC50", "value": ">100 µM"}
{"smiles": "CCCCN(CCCC)CCC(O)c1cc2c(Cl)cc(Cl)cc2c2cc(C(F)(F)F)ccc12", "agent": "Cryptosporidium parvum", "strain": "Calf isolate", "cell line": "L929", "endpoint": "inhibition", "tested at": "20 µg/mL", "value": "69.36%"}
{"smiles": "COc1nc(N)nc2c1ncn2C=C1CC1CO", "agent": "Mouse cytomegalovirus", "cell line": "MEF", "method": "plaque count", "endpoint": "EC50", "value": "0.4 µM"}

The last 4 rows once more:

smiles | agent | strain | cell line | method | endpoint | tested at | value
CCCCc1cc2c(=O)c(C(=O)OC)c[nH]c2cc1OCc1ccccc1 | Cryptosporidium parvum | Calf isolate | L929 |  | inhibition | 20 µg/mL | 37%
CC(C)CCCC(=O)CCCCCCC(=O)CCN(O)C(=O)C(N)CO | Kaposi sarcoma virus |  | BC3 | GFP / microscopy | EC50 |  | >100 µM
CCCCN(CCCC)CCC(O)c1cc2c(Cl)cc(Cl)cc2c2cc(C(F)(F)F)ccc12 | Cryptosporidium parvum | Calf isolate | L929 |  | inhibition | 20 µg/mL | 69.36%
COc1nc(N)nc2c1ncn2C=C1CC1CO | Mouse cytomegalovirus |  | MEF | plaque count | EC50 |  | 0.4 µM

ECn is the concentration giving n% inhibition of infection, replication or growth. Zone: diameter of growth inhibition. a–b is a range or a potency band. Percent inhibition refers to the dose given; in toxicity tests it is the harm to the cells. An empty or dashed field is not shown. Lines come from different laboratories, so protocols vary.